A mixed list of measured activities; the numbers were collected in NIAID ChemDB.

Common to all: whole-cell or culture tests; agent: Junin virus

Rows are shuffled and stem from different studies.

SMILES	strain or isolate	tested at	cell line	endpoint	result
Nc1nccc2c1ncn2[C@@H]1C=C(CO)[C@@H](O)[C@H]1O				MIC	1 µg/mL
CC[C@@H](O)C1=C[C@@H](n2cnc3c(N)ncnc32)[C@H](O)[C@@H]1O			VERO	EC50	>50 µg/mL
CC[C@@H](C(C)C)[C@H](O)[C@@H](O)[C@@H](C)[C@H]1CC[C@H]2[C@@H]3CC(=O)[C@H]4C[C@@H](Br)CC[C@]4(C)[C@H]3CC[C@]12C	IV4454		VERO	EC90	19.1 µM
CC(C)=CCCC(CO)C1CCC2C3CC=C4C[C@H](O)[C@@H](O)CC4(C)C3CCC12C	IV4454	40 µg/mL	VERO	inhibition	0%
CC[C@@H](C(C)C)[C@@H](O)[C@H](O)[C@@H](C)[C@H]1CC[C@H]2[C@@H]3CC(=O)[C@@]4(O)C[C@@H](OC(C)=O)CC[C@]4(C)[C@H]3CC[C@]12C	IV4454		VERO	EC90	29.6 µM
Nc1ccn(CCCC(O)CF)c(=O)n1			VERO	EC50	>200 µg/mL
Nc1nccc2c1ncn2[C@@H]1C=C[C@@H](O)[C@H]1O				MIC	2 µg/mL
CC12CC[C@H](O)CC1=CCC1C2CCC2(C)C(C(=O)COS(=O)(=O)O)CCC12	IV4454	40 µg/mL	VERO	inhibition	28.9%
CC[C@@H](C(C)C)[C@@H](O)[C@H](O)[C@@H](C)[C@H]1CC[C@H]2[C@@H]3CC(=O)[C@H]4C[C@H](O)[C@H](O)C[C@]4(C)[C@H]3CC[C@]12C	XJCI3		VERO	EC50	1.5 µM
Nc1nccc2c1ncn2[C@@H]1CC[C@@H](O)[C@H]1O				MIC	0.01 µg/mL
C#C[C@@H](O)C1=C[C@@H](n2cnc3c(N)ncnc32)[C@H](O)[C@@H]1O			VERO	EC50	>50 µg/mL
Nc1nc2c(ncn2CCCC(O)CF)c(=O)[nH]1			VERO	EC50	>200 µg/mL
CC[C@@H](C(C)C)[C@H](O)[C@@H](O)[C@@H](C)[C@H]1CC[C@H]2[C@@H]3CC(=O)[C@@]4(O)C[C@@H](Br)CC[C@]4(C)[C@H]3CC[C@]12C	XJCI3		VERO	EC50	0.5 µM
CC(=O)O[C@H]1CC2=CCC3C(CCC4(C)C(C(CCC=C(C)C)COS(=O)(=O)O)CCC34)C2(C)C[C@@H]1OS(=O)(=O)O	IV4454	40 µg/mL	VERO	inhibition	3.5%
C=C[C@H](O)C1=C[C@@H](n2cnc3c(N)ncnc32)[C@H](O)[C@@H]1O			VERO	EC50	>50 µg/mL
Cc1cn(CCCC(O)CF)c(=O)[nH]c1=O			VERO	EC50	>200 µg/mL
CC[C@@H](C(C)C)[C@@H](O)[C@H](O)[C@@H](C)[C@H]1CC[C@H]2[C@@H]3CC(=O)[C@@]4(O)C[C@@H](Br)CC[C@]4(C)[C@H]3CC[C@]12C	IV4454		VERO	EC90	6.6 µM
CC12CC[C@H](OS(=O)(=O)O)CC1=CCC1C2CCC2(C)C(C(=O)COS(=O)(=O)O)CCC12	IV4454	40 µg/mL	VERO	inhibition	14%
Nc1ncnc2c1ncn2[C@@H]1CC[C@@H](O)[C@H]1O				MIC	0.01 µg/mL
CC[C@@H](C(C)C)[C@@H](O)[C@H](O)[C@@H](C)[C@H]1CC[C@H]2[C@@H]3CC(=O)[C@H]4C[C@@H](OC(C)=O)CC[C@]4(C)[C@H]3CC[C@]12C	IV4454		VERO	EC90	14.5 µM

Repeating the final 2 entries:

SMILES,strain or isolate,tested at,cell line,endpoint,result
Nc1ncnc2c1ncn2[C@@H]1CC[C@@H](O)[C@H]1O,,,,MIC,0.01 µg/mL
CC[C@@H](C(C)C)[C@@H](O)[C@H](O)[C@@H](C)[C@H]1CC[C@H]2[C@@H]3CC(=O)[C@H]4C[C@@H](OC(C)=O)CC[C@]4(C)[C@H]3CC[C@]12C,IV4454,,VERO,EC90,14.5 µM

ECn: concentration that inhibits the pathogen or its effect by n%. An empty or dashed field is not shown. Inhibition is in % at the dose shown (toxicity tests: loss of growth or viability).